The values below come from publication PMC12164071, “Lysine targeting covalent inhibitors of malarial kinase PfCLK3” (RSC Medicinal Chemistry, 2025).

For data set [1], the system named is 3D7 Plasmodium falciparum parasites. In words: Ex vivo P. falciparum (3D7) inhibition assay. The class given is cell-based. Particulars: Pf3D7 parasites, 72 hours, errors SD, N ≥ 3.
In another data set the test system is HepG2 cells. As to the kind of experiment: Human cell viability assay (resazurin). The note with it: HepG2, 48 hours, errors SD, N ≥ 3.

What is called EC50 is the concentration at which the effect is half-maximal. What is called CC50 is the concentration at which the toxic effect on the cells reaches its halfway point. For `CCN(CC)Cc1ccc(OC)c(-c2cnc3[nH]cc(-c4ccc(C(=O)O)c(C(C)C)c4)c3c2)c1`, the “pEC50 (3D7)” value in data set [1] came to 6.47± 0.09. In data set [1] (read-out: EC50 (3D7)), the EC50 is 343 nM. Besides, in the data set with HepG2 cells, the “pCC50 (HepG2)” value is reported as less than 4.3. In addition, the CC50 with HepG2 cells (read-out: CC50 (HepG2)) is more than 50000 nM.
